Test results from patent publication US20240166643A1, “IMIDAZO[1,2-A]PYRIDINE COMPOUNDS AND THEIR USE IN THERAPY” (Imperial College Innovations Limited, priority 2020, published 2024).

Protein sequences, listed by entry. Tags and fused reporters are not part of them. Residues count along the entry.
UniProt A5K1A2, 1-410: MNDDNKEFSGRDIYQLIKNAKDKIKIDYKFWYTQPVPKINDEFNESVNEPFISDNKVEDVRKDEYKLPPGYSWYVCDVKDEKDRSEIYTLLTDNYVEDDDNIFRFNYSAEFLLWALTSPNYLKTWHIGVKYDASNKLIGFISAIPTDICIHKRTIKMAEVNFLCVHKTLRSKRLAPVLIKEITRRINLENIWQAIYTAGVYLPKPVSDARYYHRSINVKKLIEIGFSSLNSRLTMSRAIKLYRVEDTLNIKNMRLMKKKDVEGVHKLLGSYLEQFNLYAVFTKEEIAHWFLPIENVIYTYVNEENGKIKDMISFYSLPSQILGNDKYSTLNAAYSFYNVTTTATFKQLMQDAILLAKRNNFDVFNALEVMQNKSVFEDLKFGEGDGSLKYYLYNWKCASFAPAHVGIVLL

How the values were obtained:
[1] = test system: Plasmodium falciparum 3D7; test: SYBR Green assay, Plasmodium falciparum strain 3D7; conditions: read-out: Pf EC50 strain 3D7, P. falciparum strain 3D7, 96 h incubation
[2] = biological target: Plasmodium vivax (Pv) NMT (Plasmodium vivax (strain Salvador I), UniProt A5K1A2); conditions: read-out: PvNMT IC50

Structure (SMILES)	EC50 [1] [nM]	IC50 [2] [nM]
CN1CCN(c2ncc(Cl)c(N3CC(C(=O)NC(C)(C)c4cnc5ccccn45)C3)n2)CC1CF (stereo not shown)	160	12
C[C@@H]1CN(c2ncc(F)c(N3CC(C(=O)NC(C)(C)c4cnc5ccccn45)C3)n2)CCN1	25	8.3
